Experimental data as given in article PMC5353780, “A novel benzo-heterocyclic amine derivative N30 inhibits influenza virus replication by depression of Inosine-5’-Monophospate Dehydrogenase activity” (Virology Journal, 2017).

How the values were obtained:
A/hunanzhuhui/1222/2010 = experiment: microbe, parasite or virus in culture; format: cell-based, Influenza A virus (H3N2, amantadine-resistant)
A/fujiantongan/196/2009 = format: cell-based, Influenza A virus (H3N2, amantadine-resistant)
A/tianjinjinnan/15/2009 = format: cell-based, Influenza A virus (H1N1, oseltamivir-resistant)
[1] = tested on: A/liaoningzhenxing/1109/2010; format: cell-based, Influenza A virus (H1N1, oseltamivir-resistant)

NC(=O)c1ncn([C@@H]2O[C@H](CO)[C@@H](O)[C@H]2O)n1 [RBV, Ribavirin]
SI (A/hunanzhuhui/1222/2010): >85.47
IC50 (A/hunanzhuhui/1222/2010; Influenza A virus, MDCK): 2340 ± 980 nM
SI (A/fujiantongan/196/2009): >45.25
SI (A/tianjinjinnan/15/2009): >78.74
SI [1]: >40.65
